Anti-infective test results gathered from many reports (values: NIAID ChemDB through PubChem).

Shared fields: whole-cell or culture tests; species: HIV-1; method: p24; measure: EC50

Rows are shuffled and stem from different studies.

| structure | mutations | cell line | strain or isolate | value |
|---|---|---|---|---|
| COc1ccc(-c2c(C)sc3c(N4CC[C@@H](NC(C)=O)C4)ncnc23)cc1OC | - | H9 | - | >100 µM |
| Clc1cc(CN2CCCNCCNCCCNCC2)cc(Cl)n1 | - | MT-4 | NL4-3 AMD3100-resistant X4 | 9.7 µM |
| O=C1c2c(O)c(=O)nc(NCc3ccccc3)n2CCN1Cc1ccc(F)cc1 | - | MT-4 | - | <10 µM |
| COc1ccc(-c2c(C)nc3c(N4CC[C@@H](NS(=O)(=O)C(C)C)C4)cc(C)nn23)cc1OC | - | H9 | - | 0.3 µM |
| CCN1c2ncc(CCOc3ccc4cc(C(=O)NC(C)(C)C(=O)O)ccc4c3)cc2C(=O)N(C)c2cccnc21 | - | C8166 | WT | <0.1 µM |
| CSc1cc(N)nc(S[C@@H](C)c2cc3c(C)coc3cn2)n1 | RT-P236L | MT-4 | MF DLV-resistant (RT P236L) | <0.02 µM |
| COC(=O)[C@H](C)NP(=O)(OC[C@@H]1C=C[C@H](n2cc(C)c(=O)[nH]c2=O)O1)Oc1ccc(Br)cc1Cl | - | PBMC | IIIB WT | 0.001 µM |
| CC(C)CN(C[C@@H](O)[C@H](Cc1ccccc1)NC(=O)OCc1ccccn1)S(=O)(=O)c1ccc(F)c(F)c1 | - | CEM | IIIB | <10 µM |
| CC(C)[C@H](NC(=O)OCc1ccccn1)C(=O)N[C@@H](Cc1ccccc1)[C@@H](O)C[C@H](Cc1ccccc1)NC(=O)OCc1cccnc1 | PR-V82T | MT-4 | NL4-3 | <1.5 µM |
| C/C=C/CSc1cc(NC(=S)c2ccsc2C)ccc1Cl | RT-D67N K70R Y181C T215Y K219Q | CEM + CEM-SS | 4XAZT+Y181C (RT D67N K70R Y181C T215Y K219Q) | 0.2 µM |
| Cc1cccc(C)c1CNC(=O)[C@H]1N(C(=O)[C@@H](O)C[C@@H](Cc2ccccc2)C(=O)N[C@H]2c3ccccc3OC[C@H]2O)COC1(C)C | - | MT-4 | NL4-3 | <0.5 µM |
| N#Cc1cc(Cl)cc(Oc2cc(F)cc(OCc3[nH]nc4ncccc34)c2)c1 | - | MT-4 | - | <20 µM |
| CC(=O)Nc1ccc(S(=O)(=O)N(CC(C)C)C[C@@H](O)[C@H](Cc2ccccc2)NC(=O)[C@@H](NC(=O)OCc2ccccn2)C(C)C)cc1 | - | CEM | IIIB | <1 µM |
| CC1(C)Oc2ccc3ccc(=O)oc3c2[C@@H](OC(=O)C23CCC(C)(C(=O)O2)C3(C)C)[C@H]1OC(=O)C12CCC(C)(C(=O)O1)C2(C)C | RT-G550K | MT-4 | NL4-3 | 0.072 µM |
| COC(=O)[C@H](C)NP(=O)(OC[C@@H]1C=C[C@H](n2cc(C)c(=O)[nH]c2=O)O1)Oc1ccc(Cl)cc1 | RT-Y181C | PBMC | A17 | 0.079 µM |
| C=CCOC(=O)N[C@@H](Cc1ccccc1)[C@H](O)CN(CC(C)C)S(=O)(=O)c1ccc(Cl)c(Cl)c1 | - | CEM | IIIB | <10 µM |
| COc1ccc(-c2c(C)nc3c(N4CC[C@@H](O)C4)cc(C)nn23)cc1OC | - | H9 | - | 0.6 µM |
| CC(C)C1=C2[C@H]3CC[C@@H]4[C@@]5(C)CC[C@H](OC(=O)C6C[C@@H](C(=O)O)C6(C)C)C(C)(C)[C@@H]5CC[C@@]4(C)[C@]3(C)CC[C@@]2(NC(=O)C2(NC(=O)c3ccc(Cl)cc3)CCC2)CC1=O | V7A | MT-4 | NL4-3 | <0.01 µM |
| C=CCOC(=O)N[C@@H](Cc1ccccc1)[C@H](O)CN(CC1CCCC1)S(=O)(=O)c1ccc(NC(C)=O)cc1 | - | CEM | IIIB | <1 µM |
| Cc1nsc(C)c1CNC(=O)[C@H]1N(C(=O)[C@@H](O)C[C@@H](Cc2ccccc2)C(=O)N[C@H]2c3ccccc3OC[C@H]2O)COC12CCCC2 | - | MT-4 | NL4-3 | <0.125 µM |
| CC(C)(CN1CCOCC1)Cn1c(=O)c(O)c2n(c1=O)CCN(Cc1ccc(F)cc1)C2=O | - | MT-4 | - | <10 µM |
| CN(C)S(=O)(=O)c1ccc2c(c1)CCN2C(=O)COc1cc(Cl)cc(Oc2cc(Cl)cc(C#N)c2)c1 | - | MT-4 | - | <20 µM |
| CCN1c2ncc(CCOc3ccc(/C=C/C(=O)O)c4ccccc34)cc2C(=O)Nc2c(C)ccnc21 | RT-K103N Y181C | C8166 | - | <0.1 µM |
| N#Cc1cc(Cl)cc(Oc2cc(OCc3[nH]nc4nc(N5CC(N)C5)ccc34)ccc2Cl)c1 | - | MT-4 | - | <20 µM |
| Cc1ccc(-c2ccc3c(c2)C=C(C(=O)Nc2ccc(C[N+](C)(C)C4CCOCC4)cc2)CCC3)cc1 | - | PBMC | TB5 CLADE C | <1 µM |
| CCN1c2ncc(CCOc3ccc(C(=O)O)c4c3CCC4)cc2C(=O)N(C)c2ccc(Cl)nc21 | - | C8166 | WT | <0.1 µM |
| CC(=O)N(C)CCC1CN(Cc2ccc(F)cc2)C(=O)c2c(O)c(=O)n(C(C)C)c(=O)n21 | - | MT-4 | - | <10 µM |
| N#Cc1cc(Cl)cc(Oc2cc(OCc3nc4cccc(Cl)c4o3)ccc2Cl)c1 | - | MT-4 | - | <20 µM |
| Cc1cccc(C)c1CNC(=O)[C@H]1N(C(=O)[C@@H](O)C[C@@H](Cc2ccccc2)C(=O)N[C@H]2c3ccccc3OC[C@H]2O)CCC1(C)C | - | MT-4 | NL4-3 | <0.5 µM |
| CC(C)C1=C2[C@H]3CC[C@@H]4[C@@]5(C)CC[C@H](OC(=O)C6C[C@@H](C(=O)O)C6(C)C)C(C)(C)[C@@H]5CC[C@@]4(C)[C@]3(C)CC[C@@]2(NC(=O)C(C)(C)NC(=O)c2ncccn2)CC1=O | - | MT-4 | NL4-3 | >0.01 µM |
| CC(=O)N[C@@H]1CCN(c2cc(Cl)nn3cc(C)nc23)C1 | - | H9 | - | >100 µM |
| COC(=O)[C@H](C)NP(=O)(OC[C@@H]1C=C[C@H](n2cc(C)c(=O)[nH]c2=O)O1)Oc1ccccc1Br | RT M41L L74V T215Y V106N | PBMC | RTMDR | 0.523 µM |
| CC(=O)Nc1cc(S(=O)(=O)N(CC(C)C)C[C@@H](O)[C@H](Cc2ccccc2)NC(=O)OC(C)(C)C)ccc1F | - | CEM | IIIB | <10 µM |
| CCN1c2ncc(CCOc3ccc(C(=O)O)c4c3CCN(C(C)=O)C4)cc2C(=O)N(C)c2cccnc21 | - | C8166 | WT | 0.1–1 µM |
| Cc1cnc(C(=O)NC(C)(C)C(=O)N[C@@]23CC[C@]4(C)[C@H](CC[C@@H]5[C@@]6(C)CC[C@H](OC(=O)C7C[C@@H](C(=O)O)C7(C)C)C(C)(C)[C@@H]6CC[C@]54C)C2=C(C(C)C)C(=O)C3)cn1 | - | MT-4 | NL4-3 | <0.005 µM |
| COc1ccc(-c2c(C)nc3c(N4CCOCC4)cc(C)nn23)cc1OC | - | H9 | - | >1 µM |
| C=CCN(C(=O)OCc1ccc([N+](=O)[O-])cc1)C1CCN(C[C@H]2CN(C(=O)C3CCCC3)C[C@]2(O)c2ccccc2)CC1 | - | PBMC | CA9 R5 CLADE O | 0.0003 µM |
| CCCc1cc(=O)oc2c3c(c4c(c12)OC(C)(C)C=C4)O[C@H](C)C[C@@H]3O | - | PBMC | 302143 Clinical isolate | 14.42 µM |
| O=C1c2c(O)c(=O)n(CC3COCCO3)c(=O)n2CCN1Cc1ccc(F)cc1 | - | MT-4 | - | <10 µM |
| CCN1c2ncc(CCOc3ccc(NC(=O)CCC(=O)O)c4ccccc34)cc2C(=O)N(C)c2cccnc21 | RT-K103N Y181C | C8166 | - | 0.1–1 µM |
| CN(CC(N)=O)c1ccc2c(COc3ccc(Cl)c(Oc4cc(Cl)cc(C#N)c4)c3)[nH]nc2n1 | - | MT-4 | - | <20 µM |
| COc1ccc(-c2c(C)oc3c(N4CC[C@@H](NC(C)=O)C4)cc(C)nc23)cc1OC | - | H9 | - | >100 µM |
| CC(C)CN(C[C@@H](O)[C@H](Cc1ccccc1)NC(=O)OCc1cccnc1)S(=O)(=O)c1ccc(F)cc1 | - | CEM | IIIB | <1 µM |
| O=C1c2c(O)c(=O)n(C(C3CC3)C3CC3)c(=O)n2CCN1Cc1ccc(F)cc1 | - | MT-4 | - | <10 µM |
| NS(=O)(=O)c1ccc(NC(=O)COc2cc(Cl)cc(Oc3ccccc3)c2)c(Cl)c1 | - | MT-4 | - | <20 µM |
| O=C(N[C@@H](Cc1ccccc1)[C@H](O)CN(CC1CCCC1)S(=O)(=O)c1ccc(F)cc1)O[C@@H]1CCOC1 | - | CEM | IIIB | <1 µM |
| O=C(O)C(O)c1ccccc1 | - | Macrophage | R5 clinical isolate | <100 µg/mL |
| CS(=O)(=O)c1ccc2c(c1)CCN2C(=O)COc1cc(Cl)cc(Oc2cc(Cl)cc(C#N)c2)c1 | - | MT-4 | - | <20 µM |
| Cc1ccc(C)n1-c1cccc(O)c1 | - | MT-2 | IIIB | >400 µM |
| CCN1c2ncc(CCOc3ccc4cc(CC(=O)O)ccc4c3C)cc2C(=O)N(C)c2cccnc21 | RT-K103N Y181C | C8166 | - | <0.1 µM |
| OCCC#Cc1nc(-c2ccc(F)cc2)c(-c2ccncc2)n1CCCc1ccccc1 | - | Jurkat cells | 89.6 | <1 µM |
| O=C(N[C@@H](Cc1ccccc1)[C@H](O)CN(CC1CCCC1)S(=O)(=O)c1ccc(Cl)cc1)OCc1cccnc1 | - | CEM | IIIB | <1 µM |
| Cc1cn(-c2ccc(C(=O)NC(C)(C)C(=O)N[C@@]34CC[C@]5(C)[C@H](CC[C@@H]6[C@@]7(C)CC[C@H](OC(=O)C8C[C@@H](C(=O)O)C8(C)C)C(C)(C)[C@@H]7CC[C@]65C)C3=C(C(C)C)C(=O)C4)cc2)cn1 | V7A | MT-4 | NL4-3 | >0.05 µM |
| COc1ccc(-c2c(C)nc3c(N4CC[C@@H](NS(=O)(=O)C5CC5)C4)cc(C)nn23)cc1OC | - | H9 | - | 0.1 µM |
| CCOC(=O)N[C@@H](Cc1ccccc1)[C@H](O)CN(CC1CCCC1)S(=O)(=O)c1ccc(F)cc1 | - | CEM | IIIB | <1 µM |

7 of the rows above, restated:

structure | mutations | cell line | strain or isolate | value
CN(CC(N)=O)c1ccc2c(COc3ccc(Cl)c(Oc4cc(Cl)cc(C#N)c4)c3)[nH]nc2n1 | - | MT-4 | - | <20 µM
CCCc1cc(=O)oc2c3c(c4c(c12)OC(C)(C)C=C4)O[C@H](C)C[C@@H]3O | - | PBMC | 302143 Clinical isolate | 14.42 µM
C/C=C/CSc1cc(NC(=S)c2ccsc2C)ccc1Cl | RT-D67N K70R Y181C T215Y K219Q | CEM + CEM-SS | 4XAZT+Y181C (RT D67N K70R Y181C T215Y K219Q) | 0.2 µM
O=C(N[C@@H](Cc1ccccc1)[C@H](O)CN(CC1CCCC1)S(=O)(=O)c1ccc(F)cc1)O[C@@H]1CCOC1 | - | CEM | IIIB | <1 µM
N#Cc1cc(Cl)cc(Oc2cc(OCc3nc4cccc(Cl)c4o3)ccc2Cl)c1 | - | MT-4 | - | <20 µM
CN(C)S(=O)(=O)c1ccc2c(c1)CCN2C(=O)COc1cc(Cl)cc(Oc2cc(Cl)cc(C#N)c2)c1 | - | MT-4 | - | <20 µM
COc1ccc(-c2c(C)oc3c(N4CC[C@@H](NC(C)=O)C4)cc(C)nc23)cc1OC | - | H9 | - | >100 µM

ECn is the concentration giving n% inhibition of infection, replication or growth. a–b is a range or a potency band. Blank or dashed fields: not listed here.